Measured values from several laboratories, pooled; numbers as filed in NIAID ChemDB.

Shared fields: host cell toxicity; cells: VERO; measure: CC50

Rows are shuffled and stem from different studies. CCn is the concentration with n% toxicity to the cells.

structure	value
CC(C1=NNC(=Nc2ccccc2)SC1)N1C(=O)c2ccc(Br)cc2C1=O	192 µg/mL
Oc1ccccc1Cc1nc2cc(Cl)ccc2o1	62 µg/mL
CCOC(=O)C(NC(=O)c1ccccc1)(N1CCN(c2cc3c(cc2F)c(=O)c(C(=O)O)cn3CC)CC1)C(F)(F)F	>62.5 µg/mL
CCOC(=O)c1c(Br)c(-c2ccccc2)n(COCCOC(C)=O)c1-c1ccccc1	47 µM
Nc1nccc2c1ncn2[C@@H]1O[C@H](CSCCC(N)C(=O)O)C[C@H]1O	400 µg/mL
CCN(CC)CCNc1ccc2nc(C)n3c4ccc(O)cc4c(=O)c1c23.Cl	0.35 µg/mL
COC1=CC(=O)c2nc3ccccc3c3ccnc1c23	10.7 µM
CSc1nsc(-c2cccnc2)c1C#N	20 µM
N=C1C=C(N)C(=O)c2[nH]c(=O)ccc21	0.38 µg/mL
O=C1C=C(NCCO)c2nccc3c2c1nc1ccccc13	12.7 µM
CC[C@H](/C=C/[C@@H](C)[C@H]1CC[C@H]2[C@@H]3C(=O)C=C4C[C@@H](O)CC[C@]4(C)[C@H]3CC[C@]12C)C(C)C	>102 µg/mL
CC(=O)OCCOCn1c(-c2ccccc2)c(Br)c(-c2ccccc2)c1-c1ccccc1	16 µM
Cc1cc(Nc2ccc(N(C)C)cc2)c2cc(N(C)C)ccc2n1	1.76 µg/mL
CC(=O)OCCOCn1c(-c2ccccc2)c(N)c(C#N)c1-c1ccccc1	>300 µM
NNc1ccc2cccc(O)c2n1	4.18 µg/mL
O=C(O)c1c([N+](=O)[O-])c(-c2ccccc2)n(COCCO)c1-c1ccccc1	>300 µM
C=CCNc1nc2c(s1)C(=O)c1ccccc1C2=O	4 µg/mL
CN(C)c1ccc(-c2cc(C(F)(F)F)nc3c(C(F)(F)F)cccc23)cc1	35 µM
CC(O)(c1ccccc1)c1nc2cc(Cl)ccc2o1	250 µg/mL
CC(C1=NN=C(N(C)c2ccccc2)SC1)N1C(=O)c2ccccc2C1=O	192 µg/mL
CCOc1ccc2c(c1)n([O-])c1cc(Cl)ccc1[n+]2=O	31.79 µg/mL
CCOC(=O)c1c(Cl)c(-c2ccccc2)n(COCCOC(C)=O)c1C	82 µM
COC1=NC2=CC(=O)c3c(c(OC(C)=O)c(C)c4c3C(=O)[C@@](C)(O/C=C/[C@H](OC)[C@@H](C)[C@@H](OC(C)=O)[C@H](C)[C@H](O)[C@H](C)[C@@H](OC(C)=O)[C@@H](C)/C=C/C=C\1C)O4)C2=O	14.34 µg/mL
CC[C@H](CC[C@@H](C)[C@H]1CC[C@H]2[C@@H]3CC=C4C[C@@H](O)CC[C@]4(C)[C@H]3CC[C@]12C)C(C)C	>102 µg/mL
Nc1ccn(C[C@@H](CO)OCP(=O)(O)O)c(=O)n1	>100 µg/mL
CCCCOC(=O)C(N)CCSC[C@H]1O[C@@H](n2ccc3c(N)ncnc32)[C@H](O)[C@@H]1O	400 µg/mL
COC1/C=C\C=C(/C)C(=O)Nc2cc3nc4cccc(Br)c4oc-3c(c2=O)CC(C)CC(OC)C(O)C(C)/C=C(\C)C1OC(N)=O	>10 µg/mL
COCC(=O)NC(CCSC[C@H]1O[C@@H](n2ccc3c(N)ncnc32)[C@H](O)[C@@H]1O)C(=O)OC(C)C	400 µg/mL
NS(=O)(=O)c1ccc(CN2CCCC[C@H]2[C@@H](O)c2cc(C(F)(F)F)nc3c(C(F)(F)F)cccc23)cc1	38 µM
CC(C1=NNC(=Nc2ccc(F)cc2)SC1)N1C(=O)c2ccccc2C1=O	64.15 µg/mL
N#Cc1c([N+](=O)[O-])c(-c2ccccc2)n(COCCO)c1-c1ccccc1	>300 µM
CN/N=C/c1cc(C(F)(F)F)nc2c(C(F)(F)F)cccc12	>128 µM
CCCCN(CCCC)CCCCNc1ccc(C)c2sc3ccccc3c(=O)c12	9.8 µg/mL
O=C1c2ccccc2C(=O)N1C(Cc1ccccc1)C1=NNC(=Nc2ccccc2)SC1	53.41 µg/mL
c1ccc(-c2cc(N3CCCCC3)nc3nc(N4CCCCC4)ccc23)cc1	2.49 µg/mL
CSc1nsc(-c2ccccc2)c1C#N	20 µM
O=C([O-])C(F)(F)F.[NH3+]CCNC1=CC(=O)c2nc3ccccc3c3ccnc1c23	2.1 µM
CNS(=O)(=O)c1sc(N(C)C(=O)Nc2ccc(-c3ccccc3)cc2)nc1C	250 µM
O=C(NC(=O)Nc1ccc(Cl)cc1)NC(=O)c1ccccc1F	>50 µg/mL
CC(C1=NN=C(N(C)C)SC1)N1C(=O)c2ccccc2C1=O	333 µg/mL
CNS(=O)(=O)c1sc(N(C)C(=O)Cc2ccc(-c3ccccc3)cc2)nc1C	50 µM
Cc1cc(NS(=O)(=O)c2ccc(NC(NC(=O)C(C(F)(F)F)C(F)(F)F)(C(F)(F)F)C(F)(F)F)cc2)no1	283 µg/mL
O=C(/C=C/c1ccc(O)c(O)c1)O[C@@H]1CC(O)(C(=O)O)C[C@@H](OC(=O)/C=C/c2ccc(O)c(O)c2)C1O	>400 µM
O=C(N/N=C/c1ccccc1F)c1ccncc1	8 µg/mL
CC(C1=NNC(=Nc2cccnc2)SC1)N1C(=O)c2ccccc2C1=O	557 µg/mL
FC(F)(F)c1cc(NCc2cccnc2)c2cccc(C(F)(F)F)c2n1	>128 µM
Nc1ncnc2c([C@H]3C[C@H](O)[C@@H](CO)O3)[nH]nc12	400 µg/mL
O=C1c2cccnc2-c2nccc3c2c1nc1ccccc13	<0.14 µM
CO[C@H]1/C=C/O[C@@]2(C)Oc3c(C)c(O)c4c(O)c(c5c(c4c3C2=O)NC2(CCN(Cc3ccccc3)CC2)N=5)=NC(=O)/C(C)=C\C=C\[C@H](C)[C@H](O)[C@@H](C)[C@@H](O)[C@@H](C)[C@H](OC(C)=O)[C@@H]1C	0.07 µg/mL
CCCCCCCCSC1=CC(=O)c2nc3ccccc3c3ccnc1c23	14.1 µM
O=C1c2ccccc2C(=O)N1CC1=NNC(=Nc2ccccc2)SC1	192 µg/mL
CC[C@H](/C=C/[C@@H](C)[C@H]1CC[C@H]2[C@@H]3C[C@@H](O)C4=CC(=O)CC[C@]4(C)[C@H]3CC[C@]12C)C(C)C	>102 µg/mL
Cc1c2cc[n+](CCN3CCCCC3)cc2c(C)c2c1[nH]c1ccc(O)cc12	4.71 µg/mL
CC(NNC(=O)c1ccncc1)c1ccccc1F	125 µg/mL
CSc1nsc(SC)c1C#N	12 µM
Nc1ncnc2c1ncn2[C@@H]1O[C@H](CSCCC(N)C(=O)O)C[C@H]1O	200 µg/mL
O=C(NCCNC1=CC(=O)c2nc3ccccc3c3ccnc1c23)c1cnccn1	>25 µM
Nc1cc2nc3ccccc3oc-2cc1=O	18.5 µg/mL
CSc1nsc(-c2ccncc2)c1C#N	2.5 µM
Cc1ccc(NC2=CC(=O)C(=O)c3ccccc32)c(C)c1	8.28 µg/mL
Nc1ncnc2c([C@@H]3O[C@H](CCl)[C@@H](O)[C@H]3O)[nH]nc12	200 µg/mL
CSc1nsc(C2CCCCC2)c1C#N	50 µM
O=C(N/N=C/C(F)(F)F)c1ccncc1	15 µg/mL
O=C(OCCNC1=CC(=O)c2nc3ccccc3c3ccnc1c23)c1cnccn1	>25 µM
CC[C@H](/C=C/[C@@H](C)[C@H]1CC[C@H]2[C@@H]3CC=C4C[C@@H](O)CC[C@]4(C)[C@H]3CC[C@]12C)C(C)C	>102 µg/mL
CC(O)(c1ccccc1)c1nc2ccccc2o1	31 µg/mL

A second listing of 7 rows from above:

COC1=NC2=CC(=O)c3c(c(OC(C)=O)c(C)c4c3C(=O)[C@@](C)(O/C=C/[C@H](OC)[C@@H](C)[C@@H](OC(C)=O)[C@H](C)[C@H](O)[C@H](C)[C@@H](OC(C)=O)[C@@H](C)/C=C/C=C\1C)O4)C2=O ; value: 14.34 µg/mL
CC[C@H](/C=C/[C@@H](C)[C@H]1CC[C@H]2[C@@H]3C[C@@H](O)C4=CC(=O)CC[C@]4(C)[C@H]3CC[C@]12C)C(C)C ; value: >102 µg/mL
Cc1c2cc[n+](CCN3CCCCC3)cc2c(C)c2c1[nH]c1ccc(O)cc12 ; value: 4.71 µg/mL
CSc1nsc(-c2ccncc2)c1C#N ; value: 2.5 µM
CNS(=O)(=O)c1sc(N(C)C(=O)Cc2ccc(-c3ccccc3)cc2)nc1C ; value: 50 µM
Nc1ncnc2c1ncn2[C@@H]1O[C@H](CSCCC(N)C(=O)O)C[C@H]1O ; value: 200 µg/mL
CCOC(=O)c1c(Br)c(-c2ccccc2)n(COCCOC(C)=O)c1-c1ccccc1 ; value: 47 µM